Data: publication PMC9816411, “Host-derived chimeric peptides clear the causative bacteria and augment host innate immunity during infection: A case study of HLB in citrus and fire blight in apple” (Frontiers in Plant Science, 2022)

Tested on: E. coli strain BL21 (and, in some cases, ATCC25922)
Details: 5 × 10^5 cfu, 24 h incubation (b9; method b42: 10^5 cells/ml, 16 h at 37°C, Mueller Hinton II broth), 96-well serial dilution 0.02–20 μM, OD/cfu, title says micromolars

## IERSRNLDWYKGPTLLDALKNLNEGKR [I27AB]
  MIC: >20 µM

## CC(C)C[C@@H]1NC(=O)[C@H](CCCNC(=N)N)NC(=O)[C@H](CCCNC(=N)N)NC(=O)[C@@H](NC(=O)[C@@H](N)CCCCN)CSSC[C@@H](C(=O)N[C@@H](CCCNC(=N)N)C(=O)NCC(=O)N[C@@H](CCCNC(=N)N)C(=O)N[C@@H](CCC(N)=O)C(=O)O)NC(=O)[C@H](Cc2ccc(O)cc2)NC(=O)[C@H]([C@@H](C)O)NC(=O)[C@H](C(C)C)NC(=O)[C@@H]2CSSC[C@H](NC1=O)C(=O)N[C@@H](Cc1ccc(O)cc1)C(=O)N[C@@H](CCCCN)C(=O)N[C@@H](CCC(N)=O)C(=O)N[C@@H](CCCNC(=N)N)C(=O)N2 [L19GA]
  MIC: 1.25 to 2.5 µM
